# PSTVd loop 15 mutant pool in Nicotiana benthamiana

Values reported by Wu et al. 2024 (doi:10.1371/journal.ppat.1012142).

The pool varies loop 15 of the PSTVd intermediate strain in the pattern GGAAACCGNNNNNNC; wild type is GGAAACCGCUACUAC (upper and lower strand joined, each 5' to 3', the first 7 letters being the upper strand, closing pairs included).

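A pool of all variants was put on leaves of three Nicotiana benthamiana plants. Progeny were sequenced from the inoculated region (day 5), the margin of the inoculated leaf (day 10) and systemic leaves (day 12).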

Values are reads per thousand in the sample; higher means more abundant, 0 means not found. Each value is the mean of three plants. "Pool" is the share in the plasmid pool used as inoculum, on the same scale. The inoculated region was read from the minus strand, the other sites from the plus strand. For reference, wild type rose from 33.9 per thousand in the pool to 202, 200, 159 (inoculated region), 724, 746, 710 (leaf margin) and 856, 883, 880 (systemic leaves). The authors trace changes outside the varied positions to PCR and sequencing errors or to mutation in the plant; presence does not show that a variant is infectious alone. With 43,870-66,106 reads a sample, very low values are single reads.

sequence,pool,inoculated region,leaf margin,systemic leaves
GGAAACCGUAAUUUC,0.192,0.307,0.116,0.0492
GGAAACCGAGCACGC,0.176,0.108,0.00668,0
GGAAACCGCCACAUC,0.352,0.104,0.0141,0
GGAAACCGAGGGAUC,0.128,0.123,0.0128,0
GGAAACCGUACUGGC,0.240,0.137,0.00668,0.00760
GGAAACCGUCCACCC,0.192,0.0671,0,0
GGAAACCGCUAGAAC,0.176,0.395,0.120,0.0720
GGAAACCGGAGUAAC,0.256,0.0932,0.00539,0
GGAAACCGAGCACUC,0.176,0.227,0.00668,0.0107
GGAAACCGAUCGGCC,0.176,0.121,0.00668,0.0107
GGAAACCGUUCGGCC,0.192,0.115,0.00668,0.00537
GGAAACCGAUUUCCC,0.240,0.122,0.00668,0
GGAAACCGGGCCUCC,0.272,0.127,0.0195,0
GGAAACCGGGCGUCC,0.224,0.0879,0.0241,0.00537
GGAAACCGAGUUGAC,0.176,0.131,0.0121,0.00760
GGAAACCGCUACUAU,0.336,0.494,0.391,0.258
GGAAACCGGAACGUC,0.208,0.0902,0,0
GGAAACCGCCACGAC,0.208,0.0759,0.0215,0.00537
GGAAACCGGCAGUGC,0.240,0.297,0.144,0.0919
GGAAACCGUACGCUC,0.240,0.0551,0.0121,0
GGAAACCGGUGUUGC,0.224,0.0805,0.0134,0
GGAAACCGAAUGUAC,0.256,0.331,0.111,0.0664
GGAAACCGCCUCCAC,0.288,0.0896,0.0195,0
GGAAACCGUAUGACC,0.256,0.0876,0.00742,0
GGAAACCGGGAAUAC,0.160,0.435,0.0772,0.0973
GGAAACCGGUUGUAC,0.288,0.320,0.189,0.0898
GGAAACCGUGUGUAC,0.336,0.384,0.169,0.0809
GGAAACCGGGGUUCC,0.288,0.0613,0.00668,0
GGAAACCGGCGAACC,0.256,0.106,0.0128,0
GGAAACCGUCUCGAC,0.224,0.0451,0.0195,0
GGAAACCGGCCGAUC,0.192,0.328,0.124,0.0107
GGAAACCGUCUUUUC,0.208,0.0795,0.00668,0
GGAAACCGGCUUCCC,0.192,0.105,0.0121,0
GGAAACCGCGACCGC,0.160,0.0987,0.00668,0
GGAAACCGGGAAAAC,0.208,0.119,0.00539,0
GGAAACCGGUUCGAC,0.160,0.0902,0.00668,0
GGAAACCGUGUACCC,0.288,0.0632,0.0108,0.00760
GGAAACCGUUCGUUC,0.192,0.279,0.102,0.0610
GGAAACCGCACUCCC,0.176,0.111,0.00742,0
GGAAACCGGCCACUC,0.208,0.0875,0.0254,0
GGAAACCGUUGUCGC,0.192,0.0770,0,0.00537
GGAAACCGUUAAGCC,0.176,0.105,0.0330,0
GGAAACCGAACCCGC,0.112,0.0677,0.0128,0
GGAAACCGGAGCUGC,0.256,0.107,0,0
GGAAACCGUCGGCUC,0.144,0.107,0.0134,0
GGAAACCGACGGUGC,0.224,0.448,0.0932,0.0107
GGAAACCGUGGAGGC,0.320,0.0568,0.00539,0
GGAAACCGAGAUCUC,0.160,0.142,0.00668,0
GGAAACCGAGACCUC,0.224,0.0806,0.0141,0.00537
GGAAACCGGUCAACC,0.144,0.0924,0.0228,0
GGAAACCGUACCAGC,0.224,0.0720,0.0121,0
GGAAACCGCGCUAAC,0.240,0.0893,0,0
GGAAACCGUAAGGAC,0.208,0.367,0.0811,0.0701
GGAAACCGGAUGCGC,0.160,0.0887,0,0
GGAAACCGUCCGGGC,0.240,0.324,0.00539,0
GGAAACCGGGAUAGC,0.160,0.110,0.00668,0.00537
GGAAACCGCUUUGCC,0.128,0.0713,0.00539,0.0107
GGAAACCGGCUACUC,0.160,0.107,0,0
GGAAACCGCUAUGAC,0.368,0.118,0.00668,0
GGAAACCGGACGCUC,0.160,0.0741,0,0
GGAAACCGCCACUCC,0.336,0.296,0.0508,0.0107
GGAAACCGGAGUCCC,0.224,0.0891,0,0
GGAAACCGGUACUAC,0.192,29.1,16.2,7.15
GGAAACCGAACUGCC,0.320,0.0967,0.0134,0
GGAAACCGGUCCAGC,0.176,0.101,0.0121,0.00537

The opening 4 entries, copied out:

sequence	pool	inoculated region	leaf margin	systemic leaves
GGAAACCGUAAUUUC	0.192	0.307	0.116	0.0492
GGAAACCGAGCACGC	0.176	0.108	0.00668	0
GGAAACCGCCACAUC	0.352	0.104	0.0141	0
GGAAACCGAGGGAUC	0.128	0.123	0.0128	0